Anti-infective test results gathered from many reports (values: NIAID ChemDB through PubChem).

Common to all: tests in culture; agent: Poliovirus; measure: inhibition

Inhibition is in % at the dose shown (toxicity tests: loss of growth or viability).

compound | tested at | strain | cell line | value
c1ccc(C2COc3ccccc3C2)cc1 | 10 µM | IB (TYPE 2) | HEP-2 | 15%
CCC(=O)C(CCCCCCOc1ccc(OC)cc1Cl)C(=O)CC | 0.04 µM | MEF (TYPE 2) | HeLa | 31%
C/C(=N\O)c1ccc2c(c1)Sc1ccccc1S2 | 0.4 µg/mL | TYPE 3 | BSC-1 | 18%
Clc1ccc2c(c1)CC(c1ccccc1)CO2 | 10 µM | II (TYPE 2) | HEP-2 | 43%
CC(C)=CCC[C@@H](COS(=O)(=O)O)C1CCC2C3CC[C@H]4C[C@H](OS(=O)(=O)O)[C@@H](O)CC4(C)C3CCC21C | 40 µg/mL | TYPE 3 | VERO | 18%
C1=C(c2ccccc2)COc2ccccc21 | 10 µM | SABIN (TYPE 2) | HEP-2 | 100%
CC(=O)c1ccc2c(c1)Sc1ccccc1S2 | 0.4 µg/mL | TYPE 3 | BSC-1 | 17%
CC(C)CCC[C@@H](COS(=O)(=O)O)[C@H]1CC[C@H]2[C@@H]3CC[C@@H]4[C@H](O)[C@H](OS(=O)(=O)O)CC[C@]4(C)[C@H]3[C@@H](O)C[C@]12C | 20 µg/mL | SABIN (TYPE 3) | VERO | 28%
CC(=O)c1cccc(Oc2ccccc2)c1 | 2 µg/mL | TYPE 3 | BSC-1 | 100%
CC12CC[C@H](OS(=O)(=O)O)CC1=CCC1C2CCC2(C)C(C(=O)CO)CCC12 | 40 µg/mL | TYPE 3 | VERO | 0%
CC(=O)c1ccc2c(c1)S(=O)(=O)c1ccccc1O2 | 2 µg/mL | TYPE 3 | BSC-1 | 12%
CC12CCC3C(C[C@H](OS(=O)(=O)O)[C@H]4C[C@@H](OS(=O)(=O)O)CCC34C)C1CCC2C(=O)CO | 40 µg/mL | TYPE 3 | VERO | 0%
CC(C)C/C=C/[C@@H](COS(=O)(=O)O)[C@H]1CC[C@H]2[C@@H]3CC[C@@H]4[C@H](O)[C@H](OS(=O)(=O)O)CC[C@]4(C)[C@H]3[C@@H](O)C[C@]12C | 10 µg/mL | SABIN (TYPE 3) | VERO | 31%
Brc1ccc(C2=Cc3cc(Br)ccc3OC2)cc1 | 10 µM | SABIN (TYPE 2) | HEP-2 | 50%
CC(C)(O)c1ccc2c(c1)Sc1ccccc1O2 | 0.4 µg/mL | TYPE 3 | BSC-1 | 14%
Brc1ccc(C2=Cc3ccccc3OC2)cc1 | 10 µM | SABIN (TYPE 2) | HEP-2 | 23%
CC(C)=CCCC(COS(=O)(=O)O)C1CCC2C3CC=C4C[C@H](O)[C@@H](OS(=O)(=O)O)CC4(C)C3CCC12C | 40 µg/mL | TYPE 3 | VERO | 2%
Clc1ccc(C2=Cc3cc(Cl)ccc3OC2)cc1 | 10 µM | IB (TYPE 2) | HEP-2 | 5%
COC(C)c1ccc2c(c1)Sc1ccccc1O2 | 10 µg/mL | TYPE 3 | BSC-1 | 18%

Neighbouring rows are from separate reports.